Results of unrelated studies side by side (data: NIAID ChemDB).

Common to all: enzyme or target tests; species: HIV-1; protein: Reverse transcriptase; endpoint: fold resistance

Conditions beyond the fields shown may differ between rows.

CCN1c2ncc(CCOc3ccc(C(=O)O)c4c3CCCC4)cc2C(=O)N(C)c2ccc(C)nc21 ; read by: nucleotide incorporation / radiometric ; mutations: RT-K103N Y181C ; value: 1–10
CCc1ccc(-n2c(C)nnc2SCC(=O)Nc2ccc(S(N)(=O)=O)cc2Cl)c2c1CCCC2 ; read by: nucleotide incorporation / radiometric ; mutations: RT-Y181C ; value: >1
CCN1c2ncc(CCOc3ccc(-c4cc(CC(=O)O)ccc4C)cc3C)cc2C(=O)N(C)c2cccnc21 ; read by: nucleotide incorporation / radiometric ; mutations: RT-K103N Y181C ; strain: IIIB ; value: >1
Cc1c(Cc2ccccc2)nc(NCCCCN)[nH]c1=O ; mutations: RT-Y181L ; value: >10.3
CCc1cc(CCc2nc3ccccc3o2)c(=O)[nH]c1C ; read by: nucleotide incorporation ; mutations: RT-K103N Y188C ; value: >1000
CCN1c2ncc(CCOc3ccc(-c4ccc(CCC(=O)O)o4)cc3)cc2C(=O)N(C)c2cccnc21 ; read by: nucleotide incorporation / radiometric ; mutations: RT-K103N Y181C ; strain: IIIB ; value: >2
CCNC(=O)c1ccc(NC(=O)CSc2nnc(Br)n2-c2ccc(CC)c3ccccc23)c(Cl)c1 ; read by: nucleotide incorporation / radiometric ; mutations: RT-Y188L ; value: >2
CCN1c2ncc(CCOc3ccc(-c4cc(C(=O)O)on4)cc3C)cc2C(=O)N(C)c2cccnc21 ; read by: nucleotide incorporation / radiometric ; mutations: RT-K103N Y181C ; strain: IIIB ; value: 1
CCN1c2ncc(CCOc3cccc4c3ccc[n+]4[O-])cc2C(=O)Nc2c(C)cc(Cl)nc21 ; read by: nucleotide incorporation / radiometric ; mutations: RT-K103N L100I ; value: 3.8
O=C(CSc1nnc(C(F)F)n1-c1ccc(C2CC2)c2ccccc12)Nc1ccc(C(=O)O)cc1Cl ; read by: nucleotide incorporation / radiometric ; mutations: RT-Y188L ; value: >2
CCN1c2ncc(CCOc3ccc(-c4ccc(Cl)c(CC(=O)O)c4)cc3C)cc2C(=O)N(C)c2cccnc21 ; read by: nucleotide incorporation / radiometric ; mutations: RT-K103N Y181C ; strain: IIIB ; value: 1
CCOC(=O)[C@H](Cc1ccc(O)cc1)NC(=O)c1ccc(NC(=O)CSc2nnc(Br)n2-c2ccc(C3CC3)c3ccccc23)c(Cl)c1 ; read by: nucleotide incorporation / radiometric ; mutations: RT-Y181C ; value: <1
CCN1c2ncc(CCOc3ccc(C(=O)O)c4ccccc34)cc2C(=O)Nc2c(C)cc(F)nc21 ; read by: nucleotide incorporation / radiometric ; mutations: RT-Y188L ; value: >10
CCN1c2ncc(CCOc3ccc(-c4ccc(C(=O)O)cc4)c(Cl)c3)cc2C(=O)N(C)c2cccnc21 ; read by: nucleotide incorporation / radiometric ; mutations: RT-K103N Y181C ; strain: IIIB ; value: >1
NCCCCNc1nc(Cc2ccccc2)cc(=O)[nH]1 ; mutations: RT-V106A ; value: >14.3
CCN1c2ncc(CCOc3ccc(CC(=O)O)c4ccccc34)cc2C(=O)Nc2c(C)ccnc21 ; read by: nucleotide incorporation / radiometric ; mutations: RT-V106A ; value: >10
O=c1cc(Cc2ccccc2)nc(SCCCCO)[nH]1 ; mutations: RT-V106A ; value: 1.57
CCN1c2ncc(CCOc3ccc(C(=O)O)c4c3CCCC4)cc2C(=O)N(C)c2ccc(OC)nc21 ; read by: nucleotide incorporation / radiometric ; mutations: RT-K103N Y181C ; value: 1–10
CCOC(=O)C(C)NS(=O)(=O)c1ccc(NC(=O)CSc2nnc(C(F)F)n2-c2ccc(C)c3c2CCCC3)c(Cl)c1 ; read by: nucleotide incorporation / radiometric ; mutations: RT-Y181C ; value: >2

Fold resistance has wild type as its base. a–b is a range or a potency band.